Experimental data: patent US20250241944A1 (CALIFORNIA INSTITUTE OF TECHNOLOGY, priority 2023, published 2025)

system: WT Pseudomonas aeruginosa UCBPP-PA14; assay: Antibiotic treatment assay with viable plate counts (percent survival / log killing)

Compound	mechanism of antibiotic recalcitrance under hypoxic conditions
CC(C)(O/N=C(\C(=O)N[C@@H]1C(=O)N2C(C(=O)[O-])=C(C[n+]3ccccc3)CS[C@H]12)c1csc(N)n1)C(=O)O [ceftazidime]	O2-independent genetic resistance
O=C(O)c1cn(C2CC2)c2cc(N3CCNCC3)c(F)cc2c1=O [ciprofloxacin]	hypoxia-induced tolerance
NC[C@H]1O[C@H](O[C@H]2[C@H](O)[C@@H](O[C@H]3O[C@H](CO)[C@@H](O)[C@H](N)[C@H]3O)[C@H](N)C[C@@H]2N)[C@H](N)C[C@@H]1O [tobramycin]	hypoxia-induced tolerance
colistin	O2-independent genetic resistance
